Experimental data as given in article PMC3511042 (Beilstein Journal of Organic Chemistry, 2012).
*1 amine or outer side, *2 acyl side, *3 side chain or, on linkers, in order; H or OH if unused. Where a SMILES comes first, the peptide text is derived from it. Bridges are numbered along the chain shown (N, C = ends). [ ]: non-standard residue; d: D form. The star is where a group is joined. ξ: configuration not given here. X3 = CN(C)c1ccc2c(-c3cc(NC(=S)*)ccc3C(=O)[O-])c3ccc(=[N+](C)C)cc-3oc2c1; ξTrp(2-yl) = O=C(C(Cc1c([*:3])[nH]c2ccccc12)N[*:1])[*:2]; X2 = CC1(CC(N[*:1])C(=O)[*:2])SCC(CN[*:3])S1; Hyp = O=C(O)[CH]1C[CH](O)CN1

Test system: NIH 3T3 mouse fibroblasts
Assay: Binding and uptake by fluorescence microscopy
Type: cell-based
Details: 10^−5 M, live cells

CC1NC(=O)C(CC2(C)SCC(CNC(=S)Nc3ccc(C(=O)[O-])c(-c4c5ccc(=[N+](C)C)cc-5oc5cc(N(C)C)ccc45)c3)S2)NC(=O)C2Cc3c([nH]c4ccccc34)SCC(NC(=O)C(C(C)O)NC1=O)C(=O)N1CC(O)CC1C(=O)NC(C)C(=O)N2 (stereo not drawn) [compound 3, dithiolanoaminophalloidin TRITC labeled] (cyclo([ξTrp(2-yl)][X2](X3)ATC[Hyp]A); thioether 1-5; configuration not given here)
location of the fluorescent toxin after 1 h: bound on the plasma membrane
location of the fluorescent toxin after 6 h: most of the fluorescent material resides in endocytotic vesicles
location of the fluorescent toxin after 24 h: most of the rhodamine-labeled toxin was still in endosomes
